Test system: O=P(O)(O)O[C@@H]1[C@H](O)[C@H](O)[C@@H](OP(=O)(O)O)[C@H](OP(=O)(O)O)[C@H]1O
Assay: purified protein
Conditions: 200 µM ATP, 2 mM MgCl2, 20 mM HEPES, 150 mM NaCl, pH 7.5, 37°C

Row | Substance | Km | Vmax | kcat/Km
1 | T. brucei IPMK (rIPMK, rTbIPMK) (Trypanosoma brucei brucei TREU927; D142A) | 113.0 (±31.93) µM | 660 µmol/min/mg | 97300 M⁻¹ s⁻¹
2 | T. brucei IPMK (rIPMK, rTbIPMK) (Trypanosoma brucei brucei TREU927; K164W) | 51.04 (±13.84) µM | 630 µmol/min/mg | 206000 M⁻¹ s⁻¹
